Measured values from several laboratories, pooled; numbers as filed in NIAID ChemDB.

Common to all: whole-cell or culture tests

MIC50, MIC90 and the like: level of inhibition, or share of isolates inhibited.

compound	agent	strain or isolate	method	conditions	measure	tested at	result
CN[C@@H]1[C@H](O[C@H]2[C@H](O[C@H]3[C@H](O)[C@@H](O)[C@H](N=C(N)N)[C@@H](O)[C@@H]3N=C(N)N)O[C@@H](C)[C@]2(O)C=O)O[C@@H](CO)[C@H](O)[C@H]1O	Mycobacterium avium complex	N-325 (HIV-)	-	-	MIC	-	4 µg/mL
CCCCCCCCCCCCCCCCCOC(=O)NC(CCC(=O)O)(CCC(=O)O)CCC(=O)O	Mycobacterium chelonae	EO-P-1	-	-	MIC	-	27 µg/mL
Fc1cc(CNc2ncnc3ccccc23)ccc1N1CCN(c2ccc(C(F)(F)F)cn2)CC1	Mycobacterium bovis BCG	-	luminescence	-	MIC50	-	>50 µM
FC(F)(F)c1ccc(-n2c(=S)oc3ccc(Cl)cc3c2=S)cc1	Mycobacterium kansasii	My 235/80	-	21 d	MIC	-	16 µM
CCCCCCCCCCC(CCCCCCCCCC)OC(=O)NC(CCC(=O)O)(CCC(=O)O)CCC(=O)O	Mycobacterium chelonae	EO-P-1	-	-	MIC	-	27 µg/mL
CC[C@H]1OC(=O)[C@H](C)[C@@H](OC(C)=O)[C@H](C)[C@@H](O[C@@H]2O[C@H](C)C[C@H](N(C)C)[C@H]2O)C(C)(O)C[C@@H](C)/C(=N\OCCCOc2ccccc2)[C@H](C)[C@@H](O)[C@]1(C)O	Mycobacterium avium complex	20039 (clarithromycin-susceptible)	-	-	MIC	-	50 µg/mL
CCc1nc2cc(F)ccn2c1C(=O)NCc1ccc(N2CCN(c3ccc(OC4CC4)cc3)[C@@H](C)C2)c(F)c1.Cl	Mycobacterium avium	-	fluorescence	-	inhibition	0.0093 µM	85%
CC[C@H]1OC(=O)[C@H](C)[C@@H](O[C@H]2C[C@@](C)(OC)[C@@H](O)[C@H](C)O2)[C@H](C)[C@@H](O[C@@H]2O[C@H](C)C[C@H](N(C)C)[C@H]2O)[C@](C)(OC)C[C@@H](C)C(=O)[C@H](C)[C@@H](O)[C@]1(C)O	Mycobacterium avium complex	N-316 (HIV-)	-	-	MIC	-	1 µg/mL
Cc1ccc2oc(=S)n(-c3ccc(Cl)cc3)c(=S)c2c1	Mycobacterium kansasii	6509/96	-	21 d	MIC	-	8 µM
CC[C@H]1OC(=O)[C@H](C)[C@@H](O[C@H]2C[C@@](C)(OC)[C@@H](OC(C)=O)[C@H](C)O2)[C@H](C)[C@@H](O[C@@H]2O[C@H](C)C[C@H](N(C)C)[C@H]2O)C(C)(O)C[C@@H](C)/C(=N\OCCOc2ccccc2)[C@H](C)[C@@H](O)[C@]1(C)O	Mycobacterium avium complex	20096 (clarithromycin-resistant)	-	-	MIC	-	3.13 µg/mL
CCc1nc2cc(F)ccn2c1C(=O)NCc1ccc(N2CCN(c3ccc(OCC(F)(F)F)nc3)[C@@H](C)C2)c(F)c1.Cl	Mycobacterium avium	-	fluorescence	-	inhibition	0.011 µM	85%
CO[C@H]1/C=C/O[C@@]2(C)Oc3c(C)c(O)c4c(O)c(c(/C=N/N5CCN(C6CCCC6)CC5)c(O)c4c3C2=O)NC(=O)/C(C)=C\C=C\[C@H](C)[C@H](O)[C@@H](C)[C@@H](O)[C@@H](C)[C@H](OC(C)=O)[C@@H]1C	Mycobacterium avium intracellulare	953	-	-	MIC	-	1 µg/mL
Fc1cccc(-n2c(=S)oc3ccc(Cl)cc3c2=S)c1	Mycobacterium kansasii	6509/96	-	21 d	MIC	-	8 µM
CC[C@H]1OC(=O)[C@H](C)[C@@H](O[C@H]2C[C@@](C)(OC)[C@@H](OC(C)=O)[C@H](C)O2)[C@H](C)[C@@H](O[C@@H]2O[C@H](C)C[C@H](N(C)C)[C@H]2O)C(C)(O)C[C@@H](C)/C(=N\OCCCOc2ccccc2)[C@H](C)[C@@H](O)[C@]1(C)O	Mycobacterium avium complex	20092 (clarithromycin-resistant)	-	-	MIC	-	0.78 µg/mL
Nc1ccc(S(=O)(=O)c2ccc(N)cc2)cc1	Mycobacterium avium complex	DW6	-	-	MIC	-	64 µg/mL
CCCCCCCCCCCCCCCCC(=O)NC(C)(CCC(=O)O)CCC(=O)O	Mycobacterium chelonae	EO-P-1	-	-	MIC	-	18 µg/mL
CO[C@H]1/C=C/O[C@@]2(C)Oc3c(C)c(O)c4c(=O)c(c5oc6cc(N7CCN(CC(C)C)CC7)cc(=O)c6nc5c4c3=C2O)NC(=O)/C(C)=C\C=C\[C@H](C)[C@H](O)[C@@H](C)[C@@H](O)[C@@H](C)[C@H](OC(C)=O)[C@@H]1C	Mycobacterium avium complex	N-976 (HIV+)	-	-	MIC	-	0.0313 µg/mL
CCc1nc2cc(F)ccn2c1C(=O)NCc1ccc(N2CCC(c3ccc(OC(F)(F)F)cc3)CC2)c(Cl)c1.Cl	Mycobacterium avium	-	fluorescence	-	inhibition	0.0077 µM	85%
CCCCCCCCCCCCCCCCCCCCC(=O)NC(C)(CCC(=O)O)CCC(=O)O	Mycobacterium marinum	ATCC 927	-	-	MIC	-	14 µg/mL
CCc1nc2ccc(Cl)cn2c1C(=O)NCc1ccc(N2CCN(c3ccc(OC(F)(F)F)cc3)C(C)(C)C2)c(F)c1	Mycobacterium avium	-	fluorescence	-	inhibition	0.0091 µM	85%
CC[C@H]1OC(=O)[C@H](C)[C@@H](OC2C[C@@](C)(OC)[C@@H](OC(=O)C(C)C)[C@H](C)O2)[C@H](C)[C@@H](O[C@@H]2O[C@H](C)C[C@H](N(C)C)[C@H]2O)C(C)(O)C[C@@H](C)/C(=N\OCCCOc2ccccc2)[C@H](C)[C@@H](O)[C@]1(C)O	Mycobacterium avium complex	20039 (clarithromycin-susceptible)	-	-	MIC	-	0.78 µg/mL
CCc1nc2cc(F)ccn2c1C(=O)NCc1ccc(-n2cc3c(n2)CN(c2ccc(OC(F)(F)F)cc2)C3)c(F)c1.Cl	Mycobacterium avium	-	fluorescence	-	inhibition	0.2 µM	85%
Cc1nc2ccccn2c1C(=O)NCCN1CCOCC1	Mycobacterium ulcerans	-	fluorescence	-	MIC50	-	>10 µg/mL
CCCCCCCCCCCCCCCCCCCOC(=O)NC(CCC(=O)O)(CCC(=O)O)CCC(=O)O	Mycobacterium abscessus	AAy-P-1	-	-	MIC	-	18 µg/mL
Fc1ccc(C2CCN(c3ccc(Nc4ncnc5ccccc45)cc3)CC2)cc1	Mycobacterium bovis BCG	-	luminescence	-	MIC50	-	>50 µM
CCCCCCCCCCCN(CCCCCCCCCCC)C(=O)NC(CCC(=O)O)(CCC(=O)O)CCC(=O)O	Mycobacterium marinum	ATCC 927	-	-	MIC	-	72 µg/mL
CN(CCCNC(=O)c1c(Cl)nc2ccccn12)c1ccccc1F	Mycobacterium ulcerans	-	fluorescence	-	MIC50	-	1–10 µg/mL
[2H]c1c(C([2H])([2H])[2H])c([2H])c2nc(C)c(C(=O)NCc3ccc(C4CCN(c5ccc(OC(F)(F)F)cc5)CC4)c(F)c3)n2c1[2H]	Mycobacterium avium	-	fluorescence	-	inhibition	0.021 µM	85%
CC[C@H]1OC(=O)[C@H](C)[C@@H](OC2C[C@@](C)(OC)[C@@H](O)[C@H](C)O2)[C@H](C)[C@@H](O[C@@H]2O[C@H](C)C[C@H](N(C)C)[C@H]2O)C(C)(O)C[C@@H](C)/C(=N\OCCCCOc2ccccc2)[C@H](C)[C@@H](O)[C@]1(C)O	Mycobacterium avium complex	20096 (clarithromycin-resistant)	-	-	MIC	-	6.25 µg/mL
CC(C)=CCC/C(C)=C/CNc1ncnc2ccsc12	Mycobacterium bovis BCG	-	luminescence	-	MIC50	-	>20 µM
Cc1ccc2oc(=O)n(-c3ccc(Cl)c(Cl)c3)c(=S)c2c1	Mycobacterium kansasii	6509/96	-	21 d	MIC	-	8 µM
FC(F)(F)c1ccc(Oc2ccc(Nc3nccc4ccccc34)cc2)cc1	Mycobacterium bovis BCG	-	luminescence	-	MIC50	-	>20 µM
CCCC(=O)O[C@H]1[C@H](C)[C@@H](O[C@@H]2O[C@H](C)C[C@H](N(C)C)[C@H]2O)C(C)(O)C[C@@H](C)/C(=N\OCCCOc2ccccc2)[C@H](C)[C@@H](O)[C@](C)(O)[C@@H](CC)OC(=O)[C@@H]1C	Mycobacterium avium complex	20096 (clarithromycin-resistant)	-	-	MIC	-	12.5 µg/mL
CCCCCCCCCCCC(CCCCCCCCCCC)OC(=O)NC(CCC(=O)O)(CCC(=O)O)CCC(=O)O	Mycobacterium marinum	ATCC 927	-	-	MIC	-	216 µg/mL
CCCCCCCCCCCCCCO/N=C1\[C@H](C)CC(C)(O)[C@H](O[C@@H]2O[C@H](C)C[C@H](N(C)C)[C@H]2O)[C@@H](C)[C@H](OC2C[C@@](C)(OC)[C@@H](O)[C@H](C)O2)[C@@H](C)C(=O)O[C@H](CC)[C@@](C)(O)[C@H](O)[C@H]1C	Mycobacterium avium complex	20096 (clarithromycin-resistant)	-	-	MIC	-	>50 µg/mL
Cc1ccn2c(C(=O)NC(C)c3ccc(N4CCOCC4)cc3)c(C)nc2c1	Mycobacterium ulcerans	-	fluorescence	-	MIC50	-	>10 µg/mL
FC(F)(F)c1ccc(Oc2ccc(Nc3ncnc4ccoc34)cc2)cc1	Mycobacterium bovis BCG	-	luminescence	-	MIC50	-	>20 µM
CO[C@H]1/C=C/O[C@@]2(C)Oc3c(C)c(O)c4c(O)c(c5c(c4c3C2=O)NC2(CCN(CC(C)C)CC2)N=5)=NC(=O)/C(C)=C\C=C\[C@H](C)[C@H](O)[C@@H](C)[C@@H](O)[C@@H](C)[C@H](OC(C)=O)[C@@H]1C	Mycobacterium avium complex	N-251 (HIV-)	-	-	MIC	-	1 µg/mL
Cc1ccc2ncc(C(=O)NCc3ccc(N(C)C)cc3)n2c1	Mycobacterium ulcerans	-	fluorescence	-	MIC50	-	1–10 µg/mL
Cc1ccn2c(C(=O)NCc3ccc(N4C[C@H](C)N(c5ccc(OC(F)(F)F)cc5)C[C@H]4C)c(F)c3)c(C)nc2c1	Mycobacterium avium	-	fluorescence	-	inhibition	0.18 µM	85%
FC(F)(F)c1cccnc1Oc1ccc(Nc2ncnc3ccccc23)cc1	Mycobacterium bovis BCG	-	luminescence	-	MIC50	-	>20 µM
CCc1nc2ccc(Cl)cn2c1C(=O)NCc1ccc(C2CCN(c3ccc(OC(F)(F)F)cc3)CC2)c(F)c1	Mycobacterium avium	-	fluorescence	-	inhibition	0.033 µM	85%
c1ccc(CCNc2ncnc3ccsc23)cc1	Mycobacterium bovis BCG	-	luminescence	-	MIC50	-	>50 µM
CCc1nc2ccc(Cl)cn2c1C(=O)NCc1ccc(-n2cc3c(n2)CN(c2ccc(OC(F)(F)F)cc2)C3)c(F)c1.Cl	Mycobacterium avium	-	fluorescence	-	inhibition	0.0051 µM	85%
FC(F)(F)c1ccc(-n2c(=S)oc3ccc(Br)cc3c2=S)cc1	Mycobacterium kansasii	6509/96	-	21 d	MIC	-	32 µM

For reference, 6 entries again:

| compound | agent | strain or isolate | method | conditions | measure | tested at | result |
|---|---|---|---|---|---|---|---|
| CCc1nc2cc(F)ccn2c1C(=O)NCc1ccc(N2CCN(c3ccc(OCC(F)(F)F)nc3)[C@@H](C)C2)c(F)c1.Cl | Mycobacterium avium | - | fluorescence | - | inhibition | 0.011 µM | 85% |
| CN[C@@H]1[C@H](O[C@H]2[C@H](O[C@H]3[C@H](O)[C@@H](O)[C@H](N=C(N)N)[C@@H](O)[C@@H]3N=C(N)N)O[C@@H](C)[C@]2(O)C=O)O[C@@H](CO)[C@H](O)[C@H]1O | Mycobacterium avium complex | N-325 (HIV-) | - | - | MIC | - | 4 µg/mL |
| CO[C@H]1/C=C/O[C@@]2(C)Oc3c(C)c(O)c4c(=O)c(c5oc6cc(N7CCN(CC(C)C)CC7)cc(=O)c6nc5c4c3=C2O)NC(=O)/C(C)=C\C=C\[C@H](C)[C@H](O)[C@@H](C)[C@@H](O)[C@@H](C)[C@H](OC(C)=O)[C@@H]1C | Mycobacterium avium complex | N-976 (HIV+) | - | - | MIC | - | 0.0313 µg/mL |
| CCc1nc2ccc(Cl)cn2c1C(=O)NCc1ccc(N2CCN(c3ccc(OC(F)(F)F)cc3)C(C)(C)C2)c(F)c1 | Mycobacterium avium | - | fluorescence | - | inhibition | 0.0091 µM | 85% |
| CCCCCCCCCCCCCCCCCCCOC(=O)NC(CCC(=O)O)(CCC(=O)O)CCC(=O)O | Mycobacterium abscessus | AAy-P-1 | - | - | MIC | - | 18 µg/mL |
| CC[C@H]1OC(=O)[C@H](C)[C@@H](O[C@H]2C[C@@](C)(OC)[C@@H](OC(C)=O)[C@H](C)O2)[C@H](C)[C@@H](O[C@@H]2O[C@H](C)C[C@H](N(C)C)[C@H]2O)C(C)(O)C[C@@H](C)/C(=N\OCCOc2ccccc2)[C@H](C)[C@@H](O)[C@]1(C)O | Mycobacterium avium complex | 20096 (clarithromycin-resistant) | - | - | MIC | - | 3.13 µg/mL |

An empty or dashed field is not shown. Neighbouring rows are from separate reports. a–b is a range or a potency band. Percent inhibition refers to the dose given; in toxicity tests it is the harm to the cells.